Source: PubChem BioAssay AID1259414 (Drosophila RNAi Screening Center, 2018)
Test: 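Host factors increasing or decreasing Wolbachia levels in cultured fly cells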 (primary screen). System: Drosophila JW18 cells infected with Wolbachia. Knock-down reagent: long dsRNA against Drosophila genes, 0.25 µg dsRNA per well of a 384-well plate. Time to read-out: 5 days. Treatment: cells persistently infected with Wolbachia before knock-down; no added drug. Measurement: 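Automated imaging of bacterial rRNA staining divided by host cell count, reported as plate-normalised robust z-score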. Reading the numbers: Wolbachia per cell robust z: higher = more Wolbachia per host cell than the plate typical. Rule for the call: 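Hit when robust z is 1.5 or more, or -1.5 or less, in at least two of three replicates; excludes dsRNAs with several or no targets, genes not expressed in JW18 and well A1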.
The screen tested about 24,000 reagents; below is an unselected part of those that have a named target and a result. Of all reagents, about 1,210 (5%) are marked active. 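Inactive calls also include excluded dsRNAs with several or no targets, genes unexpressed in JW18, and well A1, regardless of score.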 A plus sign joins genes that one reagent is predicted to hit.

The opening 2 entries, ahead of the listing:
| gene | PubChem SID | Wolbachia per cell robust z, rep 1 | Wolbachia per cell robust z, rep 2 | Wolbachia per cell robust z, rep 3 | outcome |
| --- | --- | --- | --- | --- | --- |
| CG45002 | SID104199936 | 0.668 | 0.599 | -0.895 | inactive |
| CG45002 | SID104216369 | 1.97 | -0.00658 | 0.89 | inactive |

Main list, from the start:
| gene | PubChem SID | Wolbachia per cell robust z, rep 1 | Wolbachia per cell robust z, rep 2 | Wolbachia per cell robust z, rep 3 | outcome |
| --- | --- | --- | --- | --- | --- |
| CG45002 | SID104199936 | 0.668 | 0.599 | -0.895 | inactive |
| CG45002 | SID104216369 | 1.97 | -0.00658 | 0.89 | inactive |
| CG9682 | SID104196328 | -1.07 | 0.842 | -0.163 | inactive |
| CG9682 | SID104204179 | 0.122 | -0.619 | 0.209 | inactive |
| CG3698 | SID104191541 | 0.622 | -0.0638 | -1.25 | inactive |
| CG3698 | SID104204961 | -0.798 | -0.456 | -1.36 | inactive |
| CG3735 | SID104184203 | 0.139 | -0.247 | 0.262 | inactive |
| disp (dispatched) | SID104192168 | -0.13 | -1.52 | 0.164 | inactive |
| Or10a (Odorant receptor 10a) | SID104200056 | 0.361 | -1.18 | -0.868 | inactive |
| Or10a (Odorant receptor 10a) | SID104206178 | -7.76 | -1.28 | 0.426 | inactive |
| alphaTub84D (alpha-Tubulin at 84D) | SID104192415 | -3.58 | 2.59 | 2.32 | active |
| alphaTub84D (alpha-Tubulin at 84D) | SID104202765 | 1.92 | 2.11 | 1.88 | active |
| alphaTub84D (alpha-Tubulin at 84D) | SID104216526 | -1.04 | -0.166 | 0.0465 | inactive |
| a10 (antennal protein 10) | SID104191111 | -1.37 | 0.227 | 0.993 | inactive |
| CG10803 | SID104197555 | -2.41 | -0.436 | 0.238 | inactive |
| CG10803 | SID104204826 | -1.35 | 0.571 | 0.74 | inactive |
| CG14506 | SID104194650 | -4.42 | 0.048 | -0.53 | inactive |
| CG2961 | SID104198038 | -3.36 | -0.234 | -1.46 | inactive |
| CG2961 | SID104207083 | -1.81 | -0.977 | -2.14 | inactive |
| CG30291 | SID104183634 | -1.53 | -3.65 | -5.8 | active |
| CG1324 | SID104200288 | 0.601 | -0.245 | -0.55 | inactive |
| CG1324 | SID104204127 | -0.0137 | 0.187 | -0.388 | inactive |
| CG17192 | SID104194978 | 0.473 | 1.21 | 1.48 | inactive |
| CG17192 | SID104203344 | 0.251 | 0.194 | -0.889 | inactive |
| CG34357 | SID104192003 | -0.542 | 0.401 | 0.99 | inactive |
| CG34357 | SID104192126 | 1.76 | -7.58 | -0.546 | inactive |
| CG34357 | SID104202388 | -1.49 | -0.869 | -4.88 | inactive |
| CG34357 | SID104206587 | 0.153 | -0.0572 | 0.369 | inactive |
| CG34357 | SID104207139 | -6.03 | -0.63 | 1.43 | inactive |
| ClpX (Caseinolytic protease chaperone subunit) | SID104195384 | 0.688 | 0.477 | 1.58 | inactive |
| CR33255 + hpRNA:CR32207 + CR42842 + 1 more | SID104189409 | -0.919 | -1.17 | 0.651 | inactive |
| CG30344 | SID104201959 | -0.471 | -0.454 | 1.01 | inactive |
| CG30344 | SID104204931 | 0.178 | 0.507 | -0.304 | inactive |
| Rab3-GEF (Rab3 GDP-GTP exchange factor) | SID104199746 | -1.32 | 0.14 | -1.1 | inactive |
| Rab3-GEF (Rab3 GDP-GTP exchange factor) | SID104199747 | -0.539 | -1.09 | 0.476 | inactive |
| Rab3-GEF (Rab3 GDP-GTP exchange factor) | SID104206264 | 0.198 | 1.77 | -0.443 | inactive |
| CG14384 | SID104194634 | -0.673 | -0.148 | 0.425 | inactive |
| CG30154 | SID104185681 | 0.42 | 0.749 | 0.319 | inactive |
| CG30154 | SID104204716 | -0.411 | -0.631 | -0.332 | inactive |
| RpS7 (Ribosomal protein S7) | SID104195186 | 2.09 | 2.27 | 1.84 | active |
| RpS7 (Ribosomal protein S7) | SID104207012 | -0.0439 | 2.37 | 1.32 | inactive |
| CG4615 | SID104197283 | 0.655 | -0.735 | 0.236 | inactive |
| CG4615 | SID104198168 | -2.38 | 1.93 | 0.154 | inactive |
| CG4615 | SID104205266 | -2.19 | -0.671 | -0.779 | inactive |
| Rpp30 (RNaseP protein p30) | SID104180112 | 1.13 | 0.403 | -1.02 | inactive |
| Rbbp5 (Retinoblastoma binding protein 5) | SID104191570 | 1.36 | -0.717 | -1.09 | inactive |
| Pgant8 (Polypeptide N-Acetylgalactosaminyltransferase 8) | SID104190593 | 0.899 | 0.503 | 1.03 | inactive |
| Pgant8 (Polypeptide N-Acetylgalactosaminyltransferase 8) | SID104205453 | 0.681 | -0.35 | -1.88 | inactive |
| mRpS34 (mitochondrial ribosomal protein S34) | SID104189710 | 0.26 | 0.296 | 0.531 | inactive |
| mRpS34 (mitochondrial ribosomal protein S34) | SID104207792 | 0.622 | -0.524 | -1.03 | inactive |
| noi (noisette) | SID104192175 | -0.6 | -0.851 | 0.53 | inactive |
| noi (noisette) | SID104204696 | 0.535 | 2.55 | 0.66 | inactive |
| CG13492 | SID104183929 | 0.732 | 1.11 | 0.784 | inactive |
| CG5890 | SID104195701 | 1.05 | 0.464 | -2.15 | inactive |
| Clk (Clock) | SID104190909 | 1.12 | 0.274 | -0.179 | inactive |
| Hao + Pex6 | SID104186496 | 0.84 | -0.727 | 0.992 | inactive |
| CR33929 (pseudo) | SID104215434 | 0.829 | 0.538 | 1.22 | inactive |
| fig (fos intronic gene) | SID104196062 | 0.0215 | -0.244 | 0.219 | inactive |
| fig (fos intronic gene) | SID104203369 | -0.226 | -0.293 | -0.57 | inactive |
| fig (fos intronic gene) | SID104219143 | 0.314 | 1.03 | -0.985 | inactive |
| Ctr1C (Copper transporter 1C) | SID104194881 | 0.76 | 0.431 | -2.65 | inactive |
| Zfrp8 (Zinc finger protein RP-8) | SID104184144 | -0.427 | 0.143 | -0.627 | inactive |
| CG18641 | SID104180319 | 0.369 | -5.8 | 2.24 | inactive |
| CG6325 | SID104195812 | 0.472 | -1.53 | 0.341 | inactive |
| Clp (Clipper) | SID104180538 | 0.637 | -0.581 | 2.39 | inactive |
| CG1773 | SID104186480 | -1.82 | -0.119 | -8.72 | inactive |
| CRIF (CR6-interacting factor) | SID104191603 | -2.72 | 0.887 | -0.453 | inactive |
| CRIF (CR6-interacting factor) | SID104205058 | -0.0724 | 0.806 | -0.301 | inactive |
